The source of these data is paper PMC12085566.

The target in this experiment is BG505 SOSIP.664 Env trimer (SOSIP-stabilized HIV-1 Env ectodomain) (HIV-1 isolate BG505). The experiment can be described thus: cryo-EM structure.

As to “4-domain CD4 (from UniProt P01730 26-206) (receptor)”, the stoichiometry N (per Env trimer (Populations 4 and 5)) amounted to 3; the stoichiometry N (per Env trimer) stood at 3.
